A mixed list of measured activities; the numbers were collected in NIAID ChemDB.

Common to all: whole-cell or culture tests; agent: Plasmodium falciparum; read-out: EC50

Blank or dashed fields: not listed here.

structure | strain or isolate | mutations | read by | value
C[C@@H]1CC[C@H]2[C@@H](C)C(=O)O[C@@H]3OC4(C)CC[C@@H]1[C@]32OO4 | 3D7 | - | - | 0.0011 µM
O=C(CC1CCC2(CC1)OOC1(OO2)C2CC3CC(C2)CC1C3)N1CCOCC1 | K1 | - | - | 0.0008 µM
C=CC1CN2CCC1CC2[C@H](O)c1ccnc2ccc(OC)cc12 | K1 | - | - | 0.16 µM
OCCCNc1nc(NCCCNc2ccnc3cc(Cl)ccc23)nc(N2CCOCC2)n1 | W2 | - | - | 1.52 µM
C=C1CN2CCC34c5ccccc5N5C=C([C@H]6CC7C8=C(CCN7C/C6=C/C)C6C=CC=CC6N8)[C@@H](O)[C@@H]([C@H]53)[C@H]1C[C@]24O | 3D7 | - | - | 3.651 µg/mL
Cc1cccc(OCCNC(=O)c2ccccc2C(F)(F)F)c1 | Dd2 | - | - | 43.1 µM
O=C(CN1C(=O)SC(=Cc2ccccc2OC(F)(F)F)C1=O)N1CCN(c2ccccc2)CC1 | W2 | Chloroquine-resistant | fluorescence | >10 µM
C/C=C1/CN2CCC34c5ccccc5N5C(OC)C67OC(C([C@H]53)[C@H]1C[C@H]24)N1c2ccccc2C2(CCN3C/C(=C/C)[C@@H]6C[C@H]32)[C@@H]17 | W2 | - | - | 0.326 µg/mL
CC(C)c1ccc(C2OOC(c3ccc(C=O)cc3)OO2)cc1 | W2 | - | LDH | 6.99 µM
CCN(CC)CCCC(C)Nc1ccnc2cc(Cl)ccc12 | W2 | Chloroquine-resistant | fluorescence | 0.033 µM
O=C(CC1CCC2(CC1)OOC1(OO2)C2CC3CC(C2)CC1C3)N1CCC(N2CCOCC2)CC1 | K1 | - | - | 0.0028 µM
Cc1cccc(SCCNC(=O)c2ccccc2Cl)c1 | Dd2 | - | - | 32 µM
C=C[C@H]1CN2CC[C@H]1C[C@H]2[C@H](O)c1ccnc2ccccc12 | Dd2 | - | - | 0.09 µM
OCCNc1nc(NCCCCNc2ccnc3cc(Cl)ccc23)nc(N2CCCCC2)n1 | W2 | - | - | 0.42 µM
O=C(CN1C(=O)SC(=Cc2ccc(Cl)cc2)C1=O)N1CCN(c2ccccc2)CC1 | W2 | Chloroquine-resistant | fluorescence | >10 µM
Cc1cccc(OCCNC(=O)c2c(Cl)ccc3cc(Cl)cnc23)c1 | Dd2 | - | - | >50 µM
CCOC(=O)c1cn(Cc2ccc(F)cc2)c2ccc3nc(-c4ccccc4)c(-c4ccccc4)nc3c2c1=O | W2 | - | fluorescence | 6.94 µM
C/C=C1/CN2CCC34c5ccccc5N5C=C6[C@H]7C[C@@H]8N(CCC89c8ccccc8N(C=C([C@H]1C[C@H]23)[C@H]54)[C@@H]69)C/C7=C/C | 3D7 | - | - | 1.824 µg/mL
OCCNc1nc(NCCCCNc2ccnc3cc(Cl)ccc23)nc(N2CCOCC2)n1 | W2 | - | - | 0.59 µM
COc1cc2c(cc1OC)CN(Cc1ccc(O)cc1)CC2 | TM4/8.2 | - | - | >20 µg/mL
Cc1[nH]ccc2c(C)c3nc4ccccc4c3cc12 | 3D7 | - | - | 1.2 µM
C=C1C(=O)O[C@@H]2/C=C(\COC(C)=O)CC/C=C(/C=O)C[C@@H](O)[C@@H]12 | W2 | - | LDH / absorbance | 0.77 µg/mL
COc1cc2c(cc1O)[C@@H]1Cc3ccc4c(c3CN1CC2)OCO4 | K1CB1 | - | - | 1.22 µg/mL
C=C[C@H]1CN2CC[C@H]1C[C@H]2[C@H](O)c1ccnc2ccc(OC)cc12 | RSA11 | - | - | 0.381 µM
CCN(CCO)CCCC(C)Nc1ccnc2cc(Cl)ccc12 | 3D7 | - | - | 0.02 µg/mL
CC(C)CN1CCN(C(=O)CC2CCC3(CC2)OOC2(OO3)C3CC4CC(C3)CC2C4)CC1 | K1 | - | - | 0.0009 µM
OCCCCNc1nc(NCCCCNc2ccnc3cc(Cl)ccc23)nc(N2CCOCC2)n1 | W2 | - | - | 0.49 µM
Cc1cccc(OCCNC(=O)c2ccc(Cl)cc2Cl)c1 | Dd2 | - | - | >50 µM
CCN(CC)CCCC(C)Nc1ccnc2cc(Cl)ccc12 | RSA11 | - | - | 0.278 µM
CN1CCc2cc3c(cc2[C@@H]1[C@@H]1OC(=O)c2c1ccc1c2OCO1)OCO3 | TM4/8.2 | - | - | >20 µg/mL
CCOC(=O)c1cn(Cc2ccc(F)cc2)c2ccc3nc(-c4ccc(F)cc4)c(-c4ccc(F)cc4)nc3c2c1=O | W2 | - | fluorescence | 7.59 µM
CCN(CC)CCCC(C)Nc1ccnc2cc(Cl)ccc12 | NF54 | - | LDH | 0.0138 µM
OCCCCNc1nc(NCCNc2ccnc3cc(Cl)ccc23)nc(N2CCCCC2)n1 | W2 | - | - | 0.4 µM
C[C@@H]1CC[C@H]2[C@@H](C)C(=O)O[C@@H]3OC4(C)CC[C@@H]1[C@]32OO4 | GNF-Pf4492R-2 | GNF-Pf4492-resistant pfatp4 I203L/P990R | SYBR Green / fluorescence | 0.0181 µM
C[C@@H]1CC[C@H]2[C@@H](C)C(=O)O[C@@H]3OC4(C)CC[C@@H]1[C@]32OO4 | RSA11 | - | - | 0.011 µM
COc1cc(Cl)c(C(=O)NCCOc2cccc(C)c2)cc1OC | Dd2 | - | - | >50 µM
COc1cc(OC)c(C=C2SC(=O)N(CC(=O)N3CCN(c4ccncc4)CC3)C2=O)c(OC)c1 | W2 | Chloroquine-resistant | fluorescence | 1.6 µM
OCCCNc1nc(NCCNc2ccnc3cc(Cl)ccc23)nc(N2CCCCC2)n1 | W2 | - | - | 0.83 µM

Again, the opening 3 rows:

structure	strain or isolate	mutations	read by	value
C[C@@H]1CC[C@H]2[C@@H](C)C(=O)O[C@@H]3OC4(C)CC[C@@H]1[C@]32OO4	3D7	-	-	0.0011 µM
O=C(CC1CCC2(CC1)OOC1(OO2)C2CC3CC(C2)CC1C3)N1CCOCC1	K1	-	-	0.0008 µM
C=CC1CN2CCC1CC2[C@H](O)c1ccnc2ccc(OC)cc12	K1	-	-	0.16 µM

ECn is the concentration giving n% inhibition of infection, replication or growth. Conditions beyond the fields shown may differ between rows.